Test results published in PubChem BioAssay AID720706 (Broad Institute, 2013).
Only a part is listed here, and it is no random draw. Activity calls are given as the source filed them.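 The calls were made as follows: active = significant combined selectivity score with lowered wild-type GFP, culture density cut under 30%, mutant RFP and density less affected; inactive = any of these conditions unmet.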

experiment: GFP drop in mixed WT/humanized-ribosome E. coli culture – GFP/RFP fluorescence, OD600, single point, bacterial rRNA inhibitor project, primary screen (AID 720706); settings: E. coli WT GFP vs humanized-ribosome RFP mutants, 24 h, stronger effect = lower value, DMSO median 0, no signal -100

Structure (SMILES) | GFP signal change (wild-type ribosome)
CCOC(=O)N1CCC(Nc2ccc(F)cc2)CC1 | inactive: 13.1%
O=C(NCC1(N2CCCCC2)CCCCC1)c1ccc(F)cc1 | inactive: 2.59%
CCCCn1nnnc1C(c1cc2ccccc2o1)N1CCC(n2c(=O)[nH]c3ccccc32)CC1 (stereo not drawn) | inactive: 3.3%
O=P1(N(CCCl)CCCl)SCCCS1 | inactive: 14.6%
CCCCOc1ccc(C(=O)NCC2(N3CCOCC3)CCCCC2)cc1 | inactive: 0.635%
CC(C)(C)n1nnnc1C(c1ccccc1)N1CCC(n2c(=O)[nH]c3ccccc32)CC1 (stereo not drawn) | inactive: 1.96%
COc1cc(C(=O)NCC2(N(C)C)CCCCC2)ccc1OC(F)F | inactive: 6.78%
CCOC(=O)N1CCC(Nc2cccc(C)c2)CC1 | inactive: 5.58%
O=c1[nH]c2ccccc2n1C1CCN(C(c2cccc3ccccc23)c2nnnn2C2CCCC2)CC1 (stereo not drawn) | inactive: 7.97%
O=c1[nH]c2ccccc2n1C1CCN(C(c2ccccc2)c2nnnn2C2CCCCC2)CC1 (stereo not drawn) | inactive: 16.8%
Cc1cccc(NC2(C#N)CCN(Cc3ccccc3)CC2)c1 | inactive: 12.1%
CCC(c1nnnn1C1CCCC1)N1CCC(n2c(=O)[nH]c3ccccc32)CC1 (stereo not drawn) | inactive: 1.09%
COc1ccc(C(=O)NCC2(N3CCCCC3)CCCCC2)c(OC)c1OC | inactive: 10%
CC(C)(C)OC(=O)N1CCC(N(C(=O)c2ccccc2)c2ccc(F)cc2)CC1 | inactive: 3.61%
COc1ccc(C(=O)NCC2(N3CCCCC3)CCCCC2)cc1 | inactive: 9.14%
CCCCn1nnnc1C(c1cccs1)N1CCC(n2c(=O)[nH]c3ccccc32)CC1 (stereo not drawn) | inactive: -24.4%
CCCCn1nnnc1C(CC)N1CCC(n2c(=O)[nH]c3ccccc32)CC1 (stereo not drawn) | inactive: -12%
O=C(NCC1(N2CCCCC2)CCCCC1)c1cccs1 | inactive: 14.1%
O=C(NCC1(N2CCCCC2)CCCCC1)c1ccc(=O)[nH]c1 | inactive: 5.68%
COc1ccc(Cl)cc1C(=O)NCC1(N2CCOCC2)CCCCC1 | inactive: -5.21%
O=C(OC1CN2CCC1CC2)C1c2ccccc2Oc2ccccc21 (stereo not drawn) | inactive: -8.68%
O=c1[nH]c2ccccc2n1C1CCN(C(c2cc3ccccc3o2)c2nnnn2C2CCCCC2)CC1 (stereo not drawn) | inactive: 10.9%
O=C(NCC1(N2CCCCC2)CCCCC1)c1ccc(Cl)s1 | inactive: 17.9%
N#CC1(Nc2ccccc2)CCN(Cc2ccccc2)CC1 | inactive: 22.5%

Structure (SMILES) | GFP signal change (wild-type ribosome)
CCCCn1nnnc1C(c1ccc(OC)cc1)N1CCC(n2c(=O)[nH]c3ccccc32)CC1 (stereo not drawn) | inactive: -5.68%
CCOC(=O)N1CCC(Nc2ccc(OC)cc2)CC1 | inactive: 8.55%
Cc1cc(C)cc(N(C(=O)c2ccccc2)C2CCN(C(=O)OC(C)(C)C)CC2)c1 | inactive: -1.56%
O=c1[nH]c2ccccc2n1C1CCN(C(c2ccccc2OC(F)(F)F)c2nnnn2C2CCCCC2)CC1 (stereo not drawn) | inactive: 14.6%
O=C(NCC1(N2CCCCC2)CCCCC1)c1ccc(Cl)nc1 | inactive: 5.86%
CCC(c1nnnn1C(C)(C)C)N1CCC(n2c(=O)[nH]c3ccccc32)CC1 (stereo not drawn) | inactive: 15.9%
O=C(NCC1(N2CCOCC2)CCCCC1)c1cc(F)c(F)cc1Cl | inactive: 6.1%
COc1cc(OC)c(C(=O)NCC2(N(C)C)CCCCC2)cc1OC | inactive: 5.81%
CCCCn1nnnc1C(c1ccnc2ccccc12)N1CCC(n2c(=O)[nH]c3ccccc32)CC1 (stereo not drawn) | inactive: -7.97%
CC(C)c1ccc(NC2CCN(C(=O)OC(C)(C)C)CC2)cc1 | inactive: -2.83%
CN(C)c1cccc(C(=O)NCC2(N3CCCCC3)CCCCC2)c1 | inactive: 12.3%
COc1ccc(CN(CCCl)CCCl)cc1Cl | inactive: 6.28%
COc1ccc(C(c2nnnn2C2CCCC2)N2CCC(n3c(=O)[nH]c4ccccc43)CC2)cc1 (stereo not drawn) | inactive: 1.8%
CCCOc1ccc(C(=O)NCC2(N(C)C)CCCCC2)cc1OC | inactive: 10.8%
Cc1ccc(C(=O)NCC2(N(C)C)CCCCC2)o1 | inactive: 6.15%
O=C(NCC1(N2CCCCC2)CCCCC1)c1cncc(Br)c1 | inactive: 2.91%
CN1CCC(Nc2cccc(F)c2)CC1 | inactive: 21.3%
O=c1[nH]c2ccccc2n1C1CCN(C(c2ccccc2OC(F)(F)F)c2nnnn2C2CCCC2)CC1 (stereo not drawn) | inactive: 24.2%
CCN1CCC(Nc2ccc(Cl)cc2)CC1 | inactive: 9.09%
O=C(NCC1(N2CCCCC2)CCCCC1)c1cccc([N+](=O)[O-])c1 | inactive: 18.7%
CSc1ccc(C(=O)NCC2(N3CCOCC3)CCCCC2)cc1 | inactive: -0.625%
CC(C)(C)n1nnnc1C(c1ccccc1OC(F)(F)F)N1CCC(n2c(=O)[nH]c3ccccc32)CC1 (stereo not drawn) | inactive: 20.8%
COc1cc(C(=O)NCC2(N3CCCCC3)CCCCC2)ccc1OC(F)F | inactive: 12.2%
CCCCn1nnnc1C(c1cccc2ccccc12)N1CCC(n2c(=O)[nH]c3ccccc32)CC1 (stereo not drawn) | inactive: 5.02%

Structure (SMILES) | GFP signal change (wild-type ribosome)
CN1CCN(CCOC(=O)C(O)(c2ccccc2)c2ccccc2)CC1 | inactive: 5.19%
COc1ccc(NC2CCN(C(=O)OC(C)(C)C)CC2)cc1 | inactive: 7.86%
CC(C)c1ccc(C(=O)NCC2(N3CCOCC3)CCCCC2)cc1 | inactive: -0.496%
O=C(NCC1(N2CCCCC2)CCCCC1)c1cccc(C(F)(F)F)c1 | inactive: -0.07%
N#Cc1ccc(C(=O)NCC2(N3CCCCC3)CCCCC2)cc1 | inactive: 6.96%
CC(C)(C)OC(=O)N1CCC(N(C(=O)c2ccccc2)c2ccc(Cl)cc2)CC1 | inactive: 0.57%
CC(C)(C)n1nnnc1C(c1cccc2ccccc12)N1CCC(n2c(=O)[nH]c3ccccc32)CC1 (stereo not drawn) | inactive: 20.5%
CN(C)C1(CNC(=O)c2cccc(C#N)c2)CCCCC1 | inactive: 9.43%
O=c1[nH]c2ccccc2n1C1CCN(C(c2ccccc2)c2nnnn2C2CCCC2)CC1 (stereo not drawn) | inactive: -5.77%
CCCN1CCC(Nc2cc(OC)cc(OC)c2)CC1 | inactive: 80.3%
Cc1cc(N(CCCl)CCCl)ccc1C=O | inactive: -9.17%
C/C(N)=N\P(=O)(Oc1ccccc1)Oc1ccccc1 | inactive: 1.68%
O=c1[nH]c2ccccc2n1C1CCN(C(c2cccs2)c2nnnn2C2CCCCC2)CC1 (stereo not drawn) | inactive: -16.9%
O=c1[nH]c2ccccc2n1C1CCN(C(c2ccnc3ccccc23)c2nnnn2C2CCCC2)CC1 (stereo not drawn) | inactive: -7.98%
COc1ccc(C(=O)NCC2(N3CCOCC3)CCCCC2)cc1OC | inactive: 14.7%
COc1cc(C(=O)NCC2(N3CCOCC3)CCCCC2)cc(OC)c1C | inactive: 3.81%
CCCCn1nnnc1C(c1ccccc1)N1CCC(n2c(=O)[nH]c3ccccc32)CC1 (stereo not drawn) | inactive: -6.62%
O=C(NCC1(N2CCOCC2)CCCCC1)c1cc(Br)ccc1Cl | inactive: -0.645%
O=c1[nH]c2ccccc2n1C1CCN(C(c2cccs2)c2nnnn2C2CCCC2)CC1 (stereo not drawn) | active: -19.1%
CCCCn1nnnc1C(c1cccc(OC)c1OC)N1CCC(n2c(=O)[nH]c3ccccc32)CC1 (stereo not drawn) | inactive: -8.14%
COc1cccc(C(c2nnnn2C(C)(C)C)N2CCC(n3c(=O)[nH]c4ccccc43)CC2)c1OC (stereo not drawn) | inactive: -25.1%
CCOC(=O)N1CCC(Nc2ccc(C)cc2)CC1 | inactive: 3.6%
O=C(O)C1(Nc2ccccc2)CCN(Cc2ccccc2)CC1 | inactive: 6.87%
NN(c1ccccc1)C1CCN(CCc2ccccc2)CC1 | inactive: -4.59%

Structure (SMILES) | GFP signal change (wild-type ribosome)
CC(C)(C)OC(=O)N1CCC(Nc2ccccc2)CC1 | inactive: 5.56%
CCCOc1ccc(C(=O)NCC2(N(C)C)CCCCC2)cc1 | inactive: 13.4%
O=c1[nH]c2ccccc2n1C1CCN(C(c2cc3ccccc3o2)c2nnnn2C2CCCC2)CC1 (stereo not drawn) | inactive: 4.42%
CN1CCC(Nc2ccc(F)c(Cl)c2)CC1 | inactive: 7.42%
CN1CCC(Nc2ccc(Cl)cc2)CC1 | inactive: 13.7%
COc1cc(OC)cc(C(=O)NCC2(N3CCOCC3)CCCCC2)c1 | inactive: 9.05%
COc1cccc(C(c2nnnn2C2CCCC2)N2CCC(n3c(=O)[nH]c4ccccc43)CC2)c1OC (stereo not drawn) | inactive: -13.5%
COc1cccc(C(=O)N(c2cc(C)cc(C)c2)C2CCN(C(=O)OC(C)(C)C)CC2)c1 | inactive: -1.56%
Fc1ccccc1NC1CCN(Cc2ccccc2)CC1 | inactive: 19.9%
Cc1ccc(C(=O)NCC2(N3CCCCC3)CCCCC2)o1 | inactive: 4.46%
CCC(c1nnnn1C1CCCCC1)N1CCC(n2c(=O)[nH]c3ccccc32)CC1 (stereo not drawn) | inactive: -28.3%
CC(=O)N(c1ccccc1)C1CCNCC1 | inactive: 10.7%
COc1cccc(C(c2nnnn2C2CCCCC2)N2CCC(n3c(=O)[nH]c4ccccc43)CC2)c1OC (stereo not drawn) | inactive: 12.7%
O=c1[nH]c2ccccc2n1C1CCN(C(c2ccnc3ccccc23)c2nnnn2C2CCCCC2)CC1 (stereo not drawn) | inactive: 8.69%
COc1cc(OC)cc(C(=O)NCC2(N3CCCCC3)CCCCC2)c1 | inactive: 4.08%
Cn1c(=O)[nH]cc(N(CCCl)CCCl)c1=O | inactive: 28.6%
CN(C)c1ccc(C(=O)NCC2(N3CCCCC3)CCCCC2)cc1 | inactive: 6.28%
O=C(NCC1(N2CCCCC2)CCCCC1)c1ccco1 | inactive: 3.85%
CC(C)(C)n1nnnc1C(c1ccnc2ccccc12)N1CCC(n2c(=O)[nH]c3ccccc32)CC1 (stereo not drawn) | inactive: -25.4%
COc1ccc(C(c2nnnn2C2CCCCC2)N2CCC(n3c(=O)[nH]c4ccccc43)CC2)cc1 (stereo not drawn) | inactive: 2.08%
Cc1ccccc1NC1(C#N)CCN(Cc2ccccc2)CC1 | inactive: 14.6%
